{"source": "paper PMC9135449", "molecular_target": "T1, HP1043 (UniProt O25684)", "T1 sequence (looked up)": "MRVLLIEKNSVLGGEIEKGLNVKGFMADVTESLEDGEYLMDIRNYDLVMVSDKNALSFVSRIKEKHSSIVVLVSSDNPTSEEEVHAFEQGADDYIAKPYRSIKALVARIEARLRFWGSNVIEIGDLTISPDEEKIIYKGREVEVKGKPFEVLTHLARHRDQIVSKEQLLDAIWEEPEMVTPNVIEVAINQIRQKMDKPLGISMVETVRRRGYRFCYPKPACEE", "assay": "EMSA", "conditions": "10 mM Tris-HCl pH 7.5, 40 mM KCl, 100 ug/ml BSA, 1 mM DTT, 5% glycerol, 25 ul, room temperature 30 min, 6% native PAGE in 45 mM Tris/45 mM orthoboric acid, recombinant protein, residues 1-223, protein details: N-terminal His6, label: none (ethidium bromide stain), probe letters rebuilt from the primers and the genome", "note": "For at least one entry, the source does not settle the construct or the ends of the probe. The comparison behind a weaker result is the experiment's own reference, which may not be listed here. Protein sequences can lack the tags named with them. At least one verdict rests on a figure or table, not on a statement of the authors.", "data": [{"sequence": "GCCAAAACGCCTAAAGCCACAATAACCTTTTTCATCGTTTGTCTCCTCTACTTATCAAAATGATCTTAAAATGATACAATTACAAGTTTAAGTTTTGCTTAAAAAATGAAGTGAAAATAAGAGAAATAAATATGATTTTATACATTCATATCCCCTTTTGTGAAAATAAATGCGGTTATTGCGCTTTCAA (double strand) [Php1227 190-bp promoter probe]", "values": [{"measurement": "binding result", "setting": "4 uM HP1043 + oxcarbazepine 0.05-1 mM, no appreciable reduction of complex", "value": "binds"}, {"measurement": "binding result", "setting": "4 uM HP1043 + temoporfin 0.05-1 mM (inhibition even at 0.05 mM)", "value": "binds more weakly"}, {"measurement": "binding result", "setting": "4 uM HP1043 + tetraethylenepentamine 0.05-1 mM, faint shifted band remains", "value": "binds more weakly"}, {"measurement": "binding result", "setting": "4 uM HP1043 + trientine 0.05-1 mM, faint shifted band remains", "value": "binds more weakly"}]}]}
